In PMC8635433, “ChAdOx1 interacts with CAR and PF4 with implications for thrombosis with thrombocytopenia syndrome” (2021):

Biological target: ChAdOx1 viral vector (virus particle, capsid) (chimpanzee adenovirus Y25)
Assay: SPR

“platelet factor 4 (PF4) (natural protein)” was tested, and the Kd was 661 nM.
